Earlier results on one compound are cited in paper PMC5618561 (International Journal of Molecular Sciences, 2017).

The data set relates to behavioral and electrographic SE induced by pilocarpine, soman and paraoxon. The conditions noted are these: cited from earlier work.

Consider `CCCC(C(N)=O)C(C)CC` (stereo not shown) [SPD, sec-Butylpropylacetamide], for which the “block of behavioral and electrographic SE” value is given as “blocked”.
